Experimental data taken from publication PMC5282649, “Binding site of restriction-modification system controller protein in Mollicutes”.
Construct, isoform or probe ends are uncertain for at least one entry. Negatives hold for the conditions tested. Tags and fusion partners may be left off the protein sequences shown.

Molecular target: T1, HsdC (controller protein of type I RM-system) (Mycoplasma gallisepticum S6) (UniProt A0A0F6CKR7)
T1 sequence (looked up, limits assumed): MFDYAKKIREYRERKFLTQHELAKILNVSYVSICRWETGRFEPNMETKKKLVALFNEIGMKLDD
Experiment: EMSA
Conditions: 20 mM Tris-HCl pH 7.5, 100 mM KCl, 6% glycerol, 15 min at 37 °C; 20 pmol protein with 10 pmol dsDNA; 6% acrylamide gel, TB buffer pH 8.3, 10 °C, EtBr stain; recombinant protein; protein details: C-terminal His-tag (pETm)

“AATTCAAAAGTGTTAAAAAGTGTGAGAAAGTGGGAAAAAT (double strand) [PmraZ]”: no binding.
